Experimental findings from patent publication US12685320B2, “Food processing oxidation treatment forumlations and methods” (Clean Chemistry, Inc., priority 2023, dated 2026) are described below.

The subject of this data set is catalase enzyme. The settings on record: 4 mL oxidant solution added to 40 mL untreated water, room temperature, 4 minutes.

As to `OO` [hydrogen peroxide], the “thickness of foam head formed” value is “approximately 1 inch”.
